Results of unrelated studies side by side (data: NIAID ChemDB).

All rows: tests on isolated targets; agent: HIV-1; protein: Reverse transcriptase; measure: fold resistance

Fold resistance: result on the changed form divided by that on wild type. Neighbouring rows are from separate reports. Blank or dashed fields: not listed here.

compound,strain,read by,changes,result
Nc1ncnc2c1ncn2[C@H]1CC[C@@H](COP(=O)(O)OP(=O)(O)OP(=O)(O)O)O1,,ELISA,RT-T215Y K219Q,1.24
O=C1c2ccncc2C(=O)N1CCNC(=S)Nc1ccc(Br)cn1,,nucleotide incorporation,RT-K103N,14.3
Cc1cc(S(N)(=O)=O)ccc1NC(=O)COc1ccc(Cl)cc1C(=O)c1cc(Cl)cc(C#N)c1,,fluorescence,RT-V106A,2.22
C/C=C/CSc1cc(NC(=S)c2ccsc2C)ccc1Cl,,,RT-E138K,0.51
CC(C)=CCN1Cc2cccc3[nH]c(=S)n(c23)C[C@@H]1C,,RT activity,RT-T181C,17
O=c1c2cccn2c2cc(Cl)c(Cl)cc2n1CCNC(=S)Nc1ccc(Br)cn1,,nucleotide incorporation,RT-K103N,15
Cc1occc1C(=S)Nc1ccc(Cl)c(/C=N/OC(C)(C)C)c1,,,RT-V106A,2.31
CC(=O)c1ccc(C)cc1NC(C(N)=O)c1c(Cl)cccc1Cl,IIIB,RT activity,RT-V106A,12
Cc1cc2c(cc1C)n1cccc1c(=O)n2CCNC(=S)Nc1ccc(Br)cn1,,nucleotide incorporation,RT-L100I,3.2
c1ccc(C2SCc3nc4ccccc4n32)cc1,,,RT-V179D,1
Nc1nc2c(ncn2[C@H]2C[C@H](O)[C@@H](COP(=O)(O)OP(=O)(O)OP(=O)(O)O)O2)c(=O)[nH]1,,nucleotide incorporation / radiometric,RT-A62V V75I F77L F116Y Q151M,0.55
CCc1cc(CCc2nc3c(Cl)ccc(Cl)c3o2)c(=S)[nH]c1C,,nucleotide incorporation,RT-K103N,5
O=c1cnc2ccccc2n1CCNC(=S)Nc1ccc(Br)cn1,,nucleotide incorporation,RT-L100I,10
Nc1ccn([C@H]2CC[C@@H](COP(=O)(O)OP(=O)(O)OP(=O)(O)O)O2)c(=O)n1,,ELISA,RT-L74V T215Y K219Q,3.375
O=c1c2cccn2ccn1CCNC(=S)Nc1ccc(Br)cn1,,nucleotide incorporation,RT-L100I,3.39
CNc1ccc(Cl)cc1S(=O)(=O)c1ccccc1[N+](=O)[O-],,,RT-L100I,0.455
Cc1cn([C@H]2C=C[C@@H](COP(=O)(O)OP(=O)(O)OP(=O)(O)O)O2)c(=O)[nH]c1=O,,nucleotide incorporation / radiometric,RT-I135A,0.8
Cc1cn([C@H]2C=C[C@@H](COP(=O)(O)OP(=O)(O)OP(=O)(O)O)O2)c(=O)[nH]c1=O,,,RT-Q161L H208Y,27
O=c1c2cccn2c2ccccc2n1CCNC(=S)Nc1ccc(Br)cn1,,nucleotide incorporation,RT-K103N,1.72
CC(C)=CCOc1cc(NC(=S)c2ccoc2C)ccc1Cl,,,RT-V106A,1
CCc1c(Sc2ccccn2)n(COCc2ccccc2)c(=O)[nH]c1=O,,,RT-P236L,1
Nc1ncnc2c1ncn2CCOCP(=O)(O)OP(=O)(O)OP(=O)(O)O,,nucleotide incorporation / radiometric,RT-L74V,2.05
CCc1cc(CCc2nc3ccccc3o2)c(=O)[nH]c1C,,nucleotide incorporation,RT-Y181C,600
Cc1cn([C@@H]2O[C@H](CO[Si](C)(C)C(C)(C)C)C3(OS(=O)(=O)C=C3N)[C@H]2O[Si](C)(C)C(C)(C)C)c(=O)n(C)c1=O,IIIB,RT activity,RT-V106A,>83.3
Nc1ncnc2c1ncn2[C@H]1CC[C@@H](COP(=O)(O)OP(=O)(O)OP(=O)(O)O)O1,,nucleotide incorporation / radiometric,RT-K65R,12.63
CCc1c([Se]c2ccccn2)n(COCc2ccccc2)c(=O)[nH]c1=O,,RT activity,RT-L100I,3
Cc1cn([C@H]2C=C[C@@H](COP(=O)(O)OP(=O)(O)OP(=O)(O)O)O2)c(=O)[nH]c1=O,,nucleotide incorporation / radiometric,RT-M184V,0.68
Cc1cn([C@H]2C=C[C@@H](COP(=O)(O)OP(=O)(O)OP(=O)(O)O)O2)c(=O)[nH]c1=O,,RT activity,RT-Y181I,4.5

Repeating the final 3 entries:

{"compound": "CCc1c([Se]c2ccccn2)n(COCc2ccccc2)c(=O)[nH]c1=O", "read by": "RT activity", "changes": "RT-L100I", "result": "3"}
{"compound": "Cc1cn([C@H]2C=C[C@@H](COP(=O)(O)OP(=O)(O)OP(=O)(O)O)O2)c(=O)[nH]c1=O", "read by": "nucleotide incorporation / radiometric", "changes": "RT-M184V", "result": "0.68"}
{"compound": "Cc1cn([C@H]2C=C[C@@H](COP(=O)(O)OP(=O)(O)OP(=O)(O)O)O2)c(=O)[nH]c1=O", "read by": "RT activity", "changes": "RT-Y181I", "result": "4.5"}